Converted amounts (≈) assume the structure as drawn. Where two headings read alike, the source gives them in different places.

The subject of assay [1] is P. falciparum 3D7 (chloroquine-sensitive). The settings on record: 3D7 strain.
Assay [2] shares this test system. The assay can be described thus: microbe, parasite or virus in culture. The settings on record: Plasmodium falciparum.

On to `COc1ccc(NC2=C(O)C(=O)c3ccccc3C2=O)cc1` [4c], for which the “Activity class (superscript on mean IC50)” value in assay [1] is recorded as “a (high activity^a (IC50 ≤ 10 μg/ml))”.

Turning to `CCN(CC)CCCC(C)Nc1ccnc2cc(Cl)ccc12` (stereo not drawn) [Chloroquine], the IC50 in assay [2] (3D7, 48 h, read-out: Mean IC50) is 0.012 µg/mL (≈ 0.0375 µM); in assay [2] (3D7, read-out: Activity class (superscript on mean IC50)) it was less than 10 µg/mL.
